Compound potency records, mixed from different reports. Data source: NIAID ChemDB in PubChem.

All rows: target-level tests; species: Pneumocystis carinii; target: Dihydrofolate reductase; endpoint: IC50

ICn: concentration for n% inhibition. Rows are shuffled and stem from different studies. Two numbers with a dash give a range or band.

smiles | value
COc1cc(C(=O)N[C@@H](CCC(=O)O)C(=O)O)ccc1N(C)Cc1cnc2nc(N)nc(N)c2n1 | 0.00049 µM
CN(Cc1cc2c(N)nc(N)nc2o1)c1ccc(C(=O)NC(CCCC(O)O)C(O)O)cc1 | 0.035 µM
CN(Cc1cnc2nc(N)nc(N)c2n1)c1ccc(C(=O)N[C@@H](CCC(=O)O)C(=O)O)cc1Br | 0.00109 µM
COc1cc(C2C=c3c(c4c([nH]c3=O)=NC(=N)N=C4N)C2)cc(OC)c1OC | 3.1 µM
Nc1nc(N)c(-c2ccc(Cl)c(Cl)c2)c(/C=C/Cc2ccccc2)n1 | 0.5 µM
COc1cccc2c1C(OC)CN2Cc1cnc2nc(N)nc(N)c2c1C | 0.41 µM
Nc1nc(N)c2c(n1)CCCc1ccc(Cl)cc1-2 | 9.6 µM
CN(Cc1cnc2nc(N)nc(N)c2n1)c1ccc(C(=O)N[C@H](CCC(=O)O)C(=O)O)cc1F | 0.00072 µM
COc1cc(CN2Cc3c(c4c(N)nc(N)nc4[nH]c3=O)C2)cc(OC)c1OC | 94.5 µM
CCc1nc(N)nc(N)c1-c1ccc(Cl)c(Cl)c1 | 1.1 µM
Nc1nc(N)c2cc(C(=O)O)ccc2n1 | >32 µM
Nc1nc(N)c2c(ccc3cc(Br)ccc32)n1 | 3.5–4.1 µM
CCc1nc(N)nc(N)c1-c1ccc(Cl)c(Cl)c1 | 1.08 µM
Nc1nc(N)c2c(ccc3c2ccn3Cc2ccccc2)n1 | >3.1 µM
CN(Cc1cnc2nc(N)nc(N)c2n1)c1ccc(C(=O)O)cc1 | 0.94 µM
Nc1nc(N)c2c(Cl)cccc2n1 | 0.28–3.6 µM
Nc1nc(N)c2c(ccc3ccccc32)n1 | 1.6 µM
COc1cc(CN2Cc3cnc4nc(N)nc(N)c4c3C2)cc(OC)c1OC | 12.6 µM
CCc1nc(N)nc(N)c1-c1ccc(Cl)c(NN=NC(CCOC(C)=O)Cc2ccccc2)c1 | 0.17 µM
Cc1c(CNc2ccc(C(=O)NC(CC(=O)O)CC(=O)O)cc2)ccc2nc(N)nc(N)c12 | 0.28–3.6 µM
COc1cc(C2Cc3c(c4c(N)nc(N)nc4[nH]c3=O)C2)cc(OC)c1OC | 94.5 µM

3 of the rows above, restated:

Cc1c(CNc2ccc(C(=O)NC(CC(=O)O)CC(=O)O)cc2)ccc2nc(N)nc(N)c12 ; value: 0.28–3.6 µM
CN(Cc1cnc2nc(N)nc(N)c2n1)c1ccc(C(=O)N[C@@H](CCC(=O)O)C(=O)O)cc1Br ; value: 0.00109 µM
COc1cc(C2C=c3c(c4c([nH]c3=O)=NC(=N)N=C4N)C2)cc(OC)c1OC ; value: 3.1 µM